The target in this test is HIV integrase (Human immunodeficiency virus type 1 group M subtype B, UniProt P04585). Briefly: 3dQ assay: HIV integrase 3′-end processing fluorescence in vitro assay. Format: biochemical. The settings on record: read-out: IC50s, 150 nM integrase, 100 nM LEDGF, 50 nM Q-probe, 2 hrs at 37° C.

With `O=C(NCc1ccc(F)cc1)c1nc(N2CCCCS2(=O)=O)c2cccnc2c1O`, the IC50 was determined as 1000 nM.

Values taken from patent US20100261751A1, “METHOD FOR D[…] OF THE TWO HUMAN IMMUNODEFICIENCY VIRUS (HIV) INTEGRASE ENZYMATIC […]” (priority 2007, published 2010).
